Results of unrelated studies side by side (data: NIAID ChemDB).

All rows: whole-cell or culture tests; organism: Aspergillus flavus; measure: zone

Zones are inhibition diameters on agar.

COc1ccc(NCc2cc3cc(C)ccc3nc2Cl)cc1 ; strain: MTCC 277 ; read by: agar diffusion ; dose: 200 µg/mL ; value: 10.4 mm
CCOC(=O)C1=C(N)Sc2[nH]c(=S)[nH]c(=S)c2C1c1ccc(Cl)cc1 ; read by: agar diffusion / agar ; dose: 10000 µg/mL ; value: 14 mm
C[C@@H]1[C@H](O)[C@@H](C)/C=C/C=C/CC/C=C/C=C/C=C/C=C/C(O[C@H]2O[C@H](C)[C@@H](O)[C@H](N)[C@@H]2O)CC2O[C@](O)(CC(O)C(O)CCC(O)CC(O)CC(O)CC(=O)O[C@H]1C)CC(O)C2C(=O)O ; strain: MTCC 277 ; read by: agar diffusion ; dose: 10 µg/disc ; value: 22 mm
Cc1ccc2nc(Cl)c(CNc3ccc(Cl)cc3)cc2c1 ; strain: MTCC 277 ; read by: agar diffusion ; dose: 200 µg/mL ; value: 10.8 mm
[Al]#[P] ; read by: agar diffusion ; dose: 1 mg/mL ; value: 32.42 mm
CCCCc1nc(Cl)c(-c2cc(-c3ccc(C)cc3)nc3c2C(=O)c2ccccc2-3)n1Cc1ccccc1 ; strain: MTCC 8188 ; read by: agar diffusion ; dose: 10 µg/disc ; value: 7 mm
Cc1ccc2nc(Cl)c(CNCc3ccccc3)cc2c1 ; strain: MTCC 277 ; read by: agar diffusion ; dose: 200 µg/mL ; value: 13.53 mm
CCCCc1nc(Cl)c(-c2cc(-c3cccs3)nc3c2C(=O)c2ccccc2-3)n1Cc1ccccc1 ; strain: MTCC 8188 ; read by: agar diffusion ; dose: 10 µg/disc ; value: 6 mm
O=c1ccc2cc3c(=O)[nH]c(=S)[nH]c3oc-2c1 ; read by: agar diffusion / agar ; dose: 10000 µg/mL ; value: 0 mm
Nc1ccc(S(N)(=O)=O)cc1 ; read by: agar ; dose: 25 µg/mL ; value: 22 mm
CCCCc1nc(Cl)c(-c2cc(-c3cn(S(=O)(=O)c4ccc(C)cc4)c4ccccc34)nc3c2C(=O)c2ccccc2-3)n1Cc1ccccc1 ; strain: MTCC 8188 ; read by: agar diffusion ; dose: 10 µg/disc ; value: 11 mm
Oc1cccc2cccnc12 ; read by: agar diffusion / agar ; dose: 25 µg/mL ; value: 19 mm
Cc1ccc2nc(Cl)c(CNc3ccc([N+](=O)[O-])cc3)cc2c1 ; strain: MTCC 277 ; read by: agar diffusion ; dose: 200 µg/mL ; value: 8.83 mm
CCCCc1nc(Cl)c(-c2cc(-c3ccc([N+](=O)[O-])cc3)nc3c2C(=O)c2ccccc2-3)n1Cc1ccccc1 ; strain: MTCC 8188 ; read by: agar diffusion ; dose: 10 µg/disc ; value: 6 mm
C[C@H]1[C@H](O)[C@@H](C)/C=C/C=C/C=C/C=C/C=C/C=C/C=C/[C@H](O[C@@H]2O[C@H](C)[C@@H](O)[C@H](N)[C@@H]2O)C[C@@H]2O[C@](O)(C[C@@H](O)C[C@@H](O)CC[C@H](O)[C@@H](O)C[C@@H](O)CC(=O)O[C@H]1C)C[C@H](O)[C@H]2C(=O)O ; read by: agar diffusion / agar ; dose: 10 µg/mL ; value: 29 mm
CCCCc1nc(Cl)c(-c2cc(-c3cccc4ccccc34)nc3c2C(=O)c2ccccc2-3)n1Cc1ccccc1 ; strain: MTCC 8188 ; read by: agar diffusion ; dose: 10 µg/disc ; value: 5 mm
Cc1cc(O)c(C(=O)/C=C/c2ccc(O)cc2)c(=O)o1 ; read by: agar diffusion ; dose: 250 µg/disc ; value: 14 mm
CCOC=C1C(=O)NC(=S)NC1=O ; read by: agar diffusion / agar ; dose: 10000 µg/mL ; value: 0 mm

A second listing of 2 rows from above:

| smiles | strain | read by | dose | value |
|---|---|---|---|---|
| Cc1ccc2nc(Cl)c(CNCc3ccccc3)cc2c1 | MTCC 277 | agar diffusion | 200 µg/mL | 13.53 mm |
| CCCCc1nc(Cl)c(-c2cc(-c3cccs3)nc3c2C(=O)c2ccccc2-3)n1Cc1ccccc1 | MTCC 8188 | agar diffusion | 10 µg/disc | 6 mm |

Lines come from different laboratories, so protocols vary.